For some assays here: The exact form of at least one protein or probe is not confirmed.
Legend:
[1] = molecular target: acetylcholinesterase (AChE) (electric eel) (UniProt O42275); experiment: capture on aptamer-coated streptavidin plate, Ellman activity read-out; settings: background (streptavidin/BSA surface) subtracted; 3'-biotin; 8 mM Na2HPO4, 2 mM NaH2PO4, 2.7 mM KCl, 137 mM NaCl, 4 mM MgCl2, pH 7.4, room temperature, 2 h; wells coated with 10 nM AChE, blocked with 1% BSA; native protein; label: 3'-biotin, immobilized on streptavidin plate; single-stranded DNA
[2] = molecular target: acetylcholinesterase (AChE) (electric eel) (UniProt O42275); experiment: ELONA; settings: high ionic strength ~1.2 M, 1137 mM NaCl, 4 mM MgCl2; 5'-biotin (ELONA); 8 mM Na2HPO4, 2 mM NaH2PO4, 2.7 mM KCl, 137 mM NaCl, 4 mM MgCl2, pH 7.4, room temperature, 2 h; wells coated with 10 nM AChE, blocked with 1% BSA; native protein; label: 5'-biotin, detected by streptavidin-HRP; single-stranded DNA

Protein sequences, listed by entry. Tags and fused reporters are not part of them. Residues count along the entry.
UniProt O42275, 24-633: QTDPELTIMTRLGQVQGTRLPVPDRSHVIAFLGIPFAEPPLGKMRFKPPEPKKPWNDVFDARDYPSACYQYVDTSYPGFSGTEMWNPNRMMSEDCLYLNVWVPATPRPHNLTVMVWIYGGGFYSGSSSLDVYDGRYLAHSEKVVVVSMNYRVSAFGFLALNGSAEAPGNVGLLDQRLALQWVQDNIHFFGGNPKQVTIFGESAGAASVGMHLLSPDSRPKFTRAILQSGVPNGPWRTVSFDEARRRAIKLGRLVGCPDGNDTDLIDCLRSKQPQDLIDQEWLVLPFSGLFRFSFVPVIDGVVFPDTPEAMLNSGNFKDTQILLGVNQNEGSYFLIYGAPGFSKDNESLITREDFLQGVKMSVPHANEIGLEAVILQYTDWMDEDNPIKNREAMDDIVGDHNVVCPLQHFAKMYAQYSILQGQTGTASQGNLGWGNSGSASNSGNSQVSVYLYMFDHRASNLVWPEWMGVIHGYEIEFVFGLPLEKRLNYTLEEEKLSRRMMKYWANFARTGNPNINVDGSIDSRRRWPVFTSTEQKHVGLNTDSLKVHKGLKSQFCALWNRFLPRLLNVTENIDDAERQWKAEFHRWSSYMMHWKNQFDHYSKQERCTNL

Row | Sequence | binding result [1] | Kd [2]
1 | AAGCATCCGCTGGTTGACTGTAGCTCTGGCAGACGTAGTGTGAAGGTACCAGCTATTGGGATCTTGGACCCTGCGAA [R15/19 3'-biotin] | binds | 
2 | AAGCATCCGCTGGTTGACTGTAGCTCTGGCAGACGTAGTGTGAAGGTACCAGCTATTGGGATCTTGGACCCTGCGAA [R15/19 (also R15/C19)] |  | 422 nM

Reference: article PMC6271157
